Drawing on ChEMBL document CHEMBL1152255, “Evaluation of peptide-aldehyde inhibitors using R188I mutant of SARS 3CL protease as a proteolysis-resistant mutant” (2008), this text covers IC50 for two compounds.

pIC50: −log10 of the molar value.

As usually defined, the pIC50 is −log10 of the IC50, conventionally taken in molar units. Higher therefore signals a low IC50.

The nature of the assay: Inhibition of SARS coronavirus 3C-like protease R188I mutant by HPLC.

Regarding `CC(=O)N[C@H](C(=O)N[C@@H](CO)C(=O)N[C@@H](C)C(=O)N[C@H](C(=O)N[C@@H](CC(C)C)C(=O)N[C@H](C=O)CCC(=O)N(C)C)C(C)C)[C@@H](C)O`, the pIC50 is 4.59.

`CC(=O)N[C@@H](CO)C(=O)N[C@@H](C)C(=O)N[C@H](C(=O)N[C@@H](CC(C)C)C(=O)N[C@H](C=O)CCC(=O)N(C)C)C(C)C` gave a pIC50 of 4.43.
